A mixed list of measured activities; the numbers were collected in NIAID ChemDB.

Common to all: tests in culture; organism: HIV-1

ECn is the concentration giving n% inhibition of infection, replication or growth. Two numbers with a dash give a range or band. Blank or dashed fields: not listed here. Rows are shuffled and stem from different studies.

| SMILES | method | changes | cells | strain or isolate | read-out | conditions | value |
|---|---|---|---|---|---|---|---|
| O=c1[nH]cnc2c1ncn2[C@H]1CC[C@@H](CO)O1 | plaque count | RT-M184I | HELA/CD4 + HELA CD4+ | HXB2 | EC50 |  | 3.82 µM |
| NC(=O)c1ncn([C@@H]2O[C@H](CO)[C@@H](O)[C@H]2O)n1 | cytopathic effect |  | ATH8 | LAV Laboratory strain | EC50 |  | >100 µg/mL |
| COc1cc(/C=N/NC(=O)c2csc(N3N=C(c4ccccc4)CC3c3ccc(Cl)cc3)n2)ccc1OCc1ccccc1 | MTT / absorbance |  | MT-4 | IIIB | EC50 |  | >125 µM |
| O=C1c2c(O)c(=O)n(CCc3cn4ccccc4n3)c(=O)n2CCN1Cc1ccc(F)cc1 | p24 |  | MT-4 |  | EC50 |  | <10 µM |
| Cc1ccnc2c1NC(=O)c1cccnc1N2C1CC1 | cytopathic effect / MTT |  | MT-4 | IIIB | EC50 | 5 d | 0.311 µM |
| Cc1cn([C@H]2C[C@H](N=[N+]=[N-])[C@@H](CO)O2)c(=O)[nH]c1=O |  |  |  | IIIB | EC50 |  | 0.0016 µg/mL |
| CN1CCN(C2(Cn3c(=O)c(O)c4n(c3=O)CCN(Cc3ccc(F)cc3)C4=O)CCCCC2)CC1 | p24 |  | MT-4 |  | EC50 |  | <10 µM |
| Cc1ccnc2c1NC(=O)c1cccnc1N2C1CC1 | p24 | RT-K103N Y181C | PBMC | A17V(RT-K103N Y181C) | EC50 |  | >10 µM |
| O=C(N/N=C/c1c(Cl)cccc1Cl)c1csc(N2N=C(c3ccccc3)CC2c2ccc(Cl)cc2)n1 | MTT / absorbance |  | MT-4 | IIIB | EC50 |  | >6.26 µM |
| C[C@H](Cn1cnc2c(N)ncnc21)OCP(=O)(O)O | PCR |  | Jurkat cells |  | EC50 |  | 7.5 µM |
| O=C1c2c(O)c(=O)n(CC(c3ccncc3)N3CCOCC3)c(=O)n2CCN1Cc1ccc(F)cc1 | p24 |  | MT-4 |  | EC95 |  | <10 µM |
| CC(=O)O[C@H]1C=C([C@H](C)[C@H]2CC(C)=C(C)C(=O)O2)[C@@]2(C)CC[C@H]3[C@@H](C[C@@H](O)[C@@]4(O)CC=CC(=O)[C@]34C)[C@@]12O | luciferase |  | MT-2 | NL4-3 | EC50 |  | 32.7 µM |
| CC(C)(C)OC(=O)C(C)(C)n1c(=O)c(O)c2n(c1=O)CCN(Cc1ccc(F)cc1)C2=O | p24 |  | MT-4 |  | EC95 |  | <10 µM |
| OC[C@@H]1CC[C@H](n2cnc3c(=S)nc[nH]c32)O1 | cytopathic effect / trypan blue |  | ATH8 | IIIB | EC50 |  | >20 µM |
| O=C(N/N=C/c1cccc(Cl)c1)c1csc(N2N=C(c3ccccc3)CC2c2ccc(Cl)cc2)n1 | MTT / absorbance |  | MT-4 | IIIB | EC50 |  | >64.5 µM |
| CCOC(=O)Cn1nc(Cc2ccccc2)cc1C1CCN(C[C@H]2CN([C@@H](C(=O)O)C3CCCCC3)C[C@@H]2c2ccccc2)CC1 | β-galactosidase |  | HeLa | BaL | EC90 |  | 0.022 µM |
| CC(C)=CCC/C(C)=C/CN1CCc2cc(O)c(O)cc2[C@H]1C | MTT |  | H9 |  | EC50 |  | >2.5 µg/mL |
| OC[C@@H]1CC[C@H](n2cnc3cncnc32)O1 | cytopathic effect / trypan blue |  | ATH8 | IIIB | EC50 |  | >200 µM |
| Cn1ncc2c1S(=O)(=O)N(Cc1cccc(Cl)c1)C(=O)N2Cc1ccc(Br)cc1 | cytopathic effect / MTT |  | MT-4 | IIIB | EC50 |  | >252.3 µM |
| Nc1ncnc2c1ncn2[C@@H]1C=C(CO)[C@@H](O)[C@H]1O | cytopathic effect |  | ATH8 | LAV Laboratory strain | EC50 |  | >5 µg/mL |
| Cn1ncc2c1S(=O)(=O)N(Cc1cccc(Cl)c1)C(=O)N2Cc1ccccc1 | cytopathic effect / MTT |  | MT-4 | IIIB | EC50 |  | >300.1 µM |
| CCCCCC=C(c1cc(Cl)c(OC)c(C(=O)O)c1)c1cc(Cl)c(OC)c(C(=O)O)c1 | cytopathic effect / XTT |  | CEM + CEM-SS | RF | EC50 |  | >84 µM |
| CC(C)=CCN1c2cc(Cl)cc3[nH]c(=S)n(c23)C[C@@H]1C |  | RT-M41L T215Y | MT-4 |  | EC50 |  | <0.1 µM |
| Cc1cn([C@H]2C[C@H](N=[N+]=[N-])[C@@H](CO)O2)c(=O)[nH]c1=O |  | RT-D67N K70R T215Y K219Q | CEM + CEM-SS | NL4-3 | EC50 |  | 0.98 µM |
| CC1NCCc2cc(O)c(O)cc21 | MTT |  | H9 |  | EC50 |  | >2.5 µg/mL |
| CC(C)CN(C[C@@H](O)[C@H](Cc1ccccc1)NC(=O)O[C@H]1CO[C@H]2OCC[C@H]21)S(=O)(=O)c1ccc(N)cc1 | PCR |  | Jurkat cells |  | EC50 |  | 0.0025 µM |
| Nc1nc(Cl)nc2c1ncn2[C@H]1CC[C@@H](CO)O1 | cytopathic effect / trypan blue |  | ATH8 | IIIB | EC50 |  | >2 µM |
| O=C(N/N=C/c1ccc(Cl)cc1O)c1csc(N2N=C(c3ccccc3)CC2c2ccc(Cl)cc2)n1 | MTT / absorbance |  | MT-4 | IIIB | EC50 |  | 0.45 µM |
| CCCCCC=C(c1cc(Br)cc(C(=O)OC)c1OC)c1cc(Br)cc(C(=O)OC)c1OC | cytopathic effect / XTT |  | CEM + CEM-SS | RF | EC50 |  | >44 µM |
| O=C1c2c(O)c(=O)n(C3CCCCN(Cc4ccccc4)C3=O)c(=O)n2CCN1Cc1ccc(F)cc1 | p24 |  | MT-4 |  | EC50 |  | <10 µM |
| COc1ccc(/C=N/NC(=O)c2csc(N3N=C(c4ccccc4)CC3c3ccc(Cl)cc3)n2)cc1O | MTT / absorbance |  | MT-4 | IIIB | EC50 |  | >61.75 µM |
| CCCn1nc(Cc2ccccc2)cc1C1CCN(C[C@H]2CN([C@@H](C(=O)O)C3CCCCC3)C[C@@H]2c2ccccc2)CC1 | β-galactosidase |  | HeLa | BaL | EC50 |  | <0.0012 µM |
| Cc1cn([C@@H]2C=C[C@H](COC(=O)OC[C@@H]3C=C[C@H](n4cc(C)c(=O)[nH]c4=O)O3)O2)c(=O)[nH]c1=O | cytopathic effect / MTT |  | MT-4 | IIIB | EC50 |  | 0.24 µM |
| O=C(N/N=C/c1cccc([N+](=O)[O-])c1)c1csc(N2N=C(c3ccccc3)CC2c2ccc(Cl)cc2)n1 | MTT / absorbance |  | MT-4 | IIIB | EC50 |  | >0.47 µM |
| O=C1c2c(O)c(=O)n(C3CN4CCC3CC4)c(=O)n2CCN1Cc1ccc(F)cc1 | p24 |  | MT-4 |  | EC50 |  | <10 µM |
| Cc1cn([C@@H]2C=C[C@H](COC(=O)OC[C@H]3O[C@@H](n4cc(C)c(=O)[nH]c4=O)C[C@@H]3N=[N+]=[N-])O2)c(=O)[nH]c1=O | cytopathic effect / MTT |  | MT-4 | IIIB | EC50 |  | 0.0063 µM |
| O=C(N/N=C/c1ccc(F)cc1)c1csc(N2N=C(c3ccccc3)CC2c2ccc(Cl)cc2)n1 | MTT / absorbance |  | MT-4 | IIIB | EC50 |  | 0.5 µM |
| COc1ccc(-c2cc(C3CCN(C[C@H]4CN([C@@H](C(=O)O)C5CCCCC5)C[C@@H]4c4cccc(F)c4)CC3)[nH]n2)cc1 | β-galactosidase |  | HeLa | BaL | EC90 |  | >0.3 µM |
| O=C(O[C@@H]1O[C@@H]2COC(=O)c3cc(O)c(O)c(O)c3-c3c(cc(O)c(O)c3O)C(=O)O[C@H]([C@H]1O)[C@@H]2O)c1cc(O)c(O)c(O)c1 | β-galactosidase |  | MAGI |  | EC50 |  | 0.38 µM |
| NNC(=O)c1csc(N2N=C(c3ccccc3)CC2c2ccc(Cl)cc2)n1 | MTT / absorbance |  | MT-4 | IIIB | EC50 |  | >125 µM |
| O=C1c2c(O)c(=O)n(C3CCC3)c(=O)n2CCN1Cc1ccc(F)cc1 | p24 |  | MT-4 |  | EC50 |  | <10 µM |
| Nc1nc(=S)c2ncn([C@H]3CC[C@@H](CO)O3)c2[nH]1 | cytopathic effect / trypan blue |  | ATH8 | IIIB | EC50 |  | >2 µM |
| C[C@@H](NC(=S)Nc1ccc(Cl)cn1)c1cccc2ccccc12 | p24 | RT-K103N Y181C | PBMC | A17V(RT-K103N Y181C) | EC50 |  | 0.367 µM |
| CCCn1ncc(CCc2ccccc2)c1C1CCN(C[C@H]2CN([C@@H](C(=O)O)C3CCCCC3)C[C@@H]2c2ccccc2)CC1 | β-galactosidase |  | HeLa | BaL | EC50 |  | <0.011 µM |
| Nc1nc(=O)n([C@H]2CS[C@@H](CO)O2)cc1F | plaque count |  | HELA/CD4 + HELA CD4+ | HXB2 | EC50 |  | 6.85 µM |
| Cn1ncc2c1S(=O)(=O)N(Cc1cccc(Cl)c1)C(=O)N2Cc1ccccc1Cl | cytopathic effect / MTT |  | MT-4 | IIIB | EC50 |  | >272.2 µM |
| C[C@@H](NC(=S)Nc1nc2ccccc2s1)c1cccc2ccccc12 | p24 |  | PBMC | IIIB | EC50 |  | 0.205 µM |
| CN(C)c1cccc2c(S(=O)(=O)N3CCSC3c3cccnc3)cccc12 | cytopathic effect / MTT |  | MT-4 | IIIB | EC50 |  | 3.35 µM |
| O=c1[nH]cnc2c1ncn2[C@H]1CC[C@@H](CO)O1 |  |  | Monocytes/macrophages | DAS | EC50 |  | 0.05 µM |
| O=C(N/N=C/c1ccccc1Cl)c1csc(N2N=C(c3ccccc3)CC2c2ccc(Cl)cc2)n1 | MTT / absorbance |  | MT-4 | IIIB | EC50 |  | >125 µM |
| C[C@H](Cn1cnc2c(N)ncnc21)OCP(=O)(O)O |  |  | MT-4 | NL4-3 | EC50 |  | 5.2–7.4 µM |
| Cc1cn([C@H]2C[C@H](N=[N+]=[N-])[C@@H](CO)O2)c(=O)[nH]c1=O | cytopathic effect / MTT |  | MT-4 | IIIB-R | EC50 | 5 d | 0.033 µM |
| O=C(O)P(=O)(O)O | cytopathic effect |  | ATH8 | LAV Laboratory strain | EC50 |  | ~50 µg/mL |
| N#CCN1C(=O)N(Cc2cccc(Cl)c2)S(=O)(=O)c2cscc21 | cytopathic effect / MTT |  | MT-4 | IIIB | EC50 |  | 0.1 µM |
| CCOC(=O)Cc1csc(NC(=S)N[C@H](C)c2cccc3ccccc23)n1 | p24 |  | PBMC | IIIB | EC50 |  | 0.054 µM |
| Cc1cn([C@H]2C[C@H](N=[N+]=[N-])[C@@H](CO)O2)c(=O)[nH]c1=O | cytopathic effect / MTT |  | MT-4 | IIIB | EC50 |  | 0.0022 µM |
| O=S(=O)(c1cccc2ccccc12)N1CCSC1c1cccnc1 | cytopathic effect / MTT |  | MT-4 | IIIB | EC50 |  | >1000 µM |
| CCCCCC=C(c1cc(Cl)c(OC)c(C(=O)N(C)C)c1)c1cc(Cl)c(OC)c(C(=O)N(C)C)c1 | cytopathic effect / XTT |  | CEM + CEM-SS | RF | EC50 |  | >21 µM |

A second listing of 8 rows from above:

SMILES	method	changes	cells	strain or isolate	read-out	conditions	value
N#CCN1C(=O)N(Cc2cccc(Cl)c2)S(=O)(=O)c2cscc21	cytopathic effect / MTT		MT-4	IIIB	EC50		0.1 µM
O=C(O)P(=O)(O)O	cytopathic effect		ATH8	LAV Laboratory strain	EC50		~50 µg/mL
O=C1c2c(O)c(=O)n(CCc3cn4ccccc4n3)c(=O)n2CCN1Cc1ccc(F)cc1	p24		MT-4		EC50		<10 µM
CCOC(=O)Cn1nc(Cc2ccccc2)cc1C1CCN(C[C@H]2CN([C@@H](C(=O)O)C3CCCCC3)C[C@@H]2c2ccccc2)CC1	β-galactosidase		HeLa	BaL	EC90		0.022 µM
Cc1cn([C@@H]2C=C[C@H](COC(=O)OC[C@@H]3C=C[C@H](n4cc(C)c(=O)[nH]c4=O)O3)O2)c(=O)[nH]c1=O	cytopathic effect / MTT		MT-4	IIIB	EC50		0.24 µM
Cc1cn([C@H]2C[C@H](N=[N+]=[N-])[C@@H](CO)O2)c(=O)[nH]c1=O				IIIB	EC50		0.0016 µg/mL
O=C1c2c(O)c(=O)n(C3CCCCN(Cc4ccccc4)C3=O)c(=O)n2CCN1Cc1ccc(F)cc1	p24		MT-4		EC50		<10 µM
CC(C)=CCN1c2cc(Cl)cc3[nH]c(=S)n(c23)C[C@@H]1C		RT-M41L T215Y	MT-4		EC50		<0.1 µM